Anti-infective test results gathered from many reports (values: NIAID ChemDB through PubChem).

Shared fields: whole-cell or culture tests; agent: Mycobacterium avium complex; read-out: MIC

a–b is a range or a potency band.

structure	strain	value
CCc1nc(N)nc(N)c1-c1ccc(Cl)cc1	DW19	32 µg/mL
CCCCCCO/N=C1\[C@H](C)CC(C)(O)[C@H](O[C@@H]2O[C@H](C)C[C@H](N(C)C)[C@H]2O)[C@@H](C)[C@H](OC2C[C@@](C)(OC)[C@@H](O)[C@H](C)O2)[C@@H](C)C(=O)O[C@H](CC)[C@@](C)(O)[C@H](O)[C@H]1C	20039	1.56 µg/mL
Clc1nc(Sc2ccc3ccccc3n2)c2[nH]cnc2n1.O	NJ211	>12.8 µg/mL
CC[C@H]1OC(=O)[C@H](C)[C@@H](O[C@H]2C[C@@](C)(OC)[C@@H](OC(C)=O)[C@H](C)O2)[C@H](C)[C@@H](O[C@@H]2O[C@H](C)C[C@H](N(C)C)[C@H]2OC(=O)NNc2ccccc2)C(C)(O)C[C@@H](C)/C(=N\OCCCC2CCCCC2)[C@H](C)[C@@H](O)[C@]1(C)O	20039 (clarithromycin-susceptible)	0.78 µg/mL
CC[C@H]1OC(=O)[C@H](C)[C@@H](OC2C[C@@](C)(OC)[C@@H](O)[C@H](C)O2)[C@H](C)[C@@H](O[C@@H]2O[C@H](C)C[C@H](N(C)C)[C@H]2O)C(C)(O)C[C@@H](C)/C(=N\OCCCCCc2ccccc2)[C@H](C)[C@@H](O)[C@]1(C)O	20039	3.13 µg/mL
CC(C)N=C(N)/N=C(\N)NOCCCOc1cc(Cl)c(Cl)cc1Cl	3030	32 µg/mL
CCCCNC(=O)OCCn1sc2ccccc2c1=S	AN1	2 µg/mL
CC[C@H]1OC(=O)[C@H](C)[C@@H](OC(=O)Cc2ccccn2)[C@H](C)[C@@H](O[C@@H]2O[C@H](C)C[C@H](N(C)C)[C@H]2O)C(C)(O)C[C@@H](C)/C(=N\OCCCOc2ccccc2)[C@H](C)[C@@H](O)[C@]1(C)O	20092 (clarithromycin-resistant)	25 µg/mL
CCCCCCCCCCCCCCCCO/N=C1\[C@H](C)CC(C)(O)[C@H](O[C@@H]2O[C@H](C)C[C@H](N(C)C)[C@H]2O)[C@@H](C)[C@H](OC2C[C@@](C)(OC)[C@@H](O)[C@H](C)O2)[C@@H](C)C(=O)O[C@H](CC)[C@@](C)(O)[C@H](O)[C@H]1C	20039	>50 µg/mL
CCCCCCCCSc1nc(Cl)nc2nc[nH]c12	NJ211	>12.8 µg/mL
CCNC(=O)OCCn1sc2ccccc2c1=O	AN1	16 µg/mL
CC[C@H]1OC(=O)[C@H](C)[C@@H](O[C@H]2C[C@@](C)(OC)[C@@H](OC(C)=O)[C@H](C)O2)[C@H](C)[C@@H](O[C@@H]2O[C@H](C)C[C@H](N(C)C)[C@H]2O)C(C)(O)C[C@@H](C)/C(=N\OCCCCc2ccccc2)[C@H](C)[C@@H](O)[C@]1(C)O	20039 (clarithromycin-susceptible)	0.78 µg/mL
CC[C@H]1OC(=O)[C@H](C)[C@@H](OC2C[C@@](C)(OC)[C@@H](O)[C@H](C)O2)[C@H](C)[C@@H](O[C@@H]2O[C@H](C)C[C@H](N(C)C)[C@H]2O)C(C)(O)C[C@@H](C)/C(=N\OCc2ccccc2)[C@H](C)[C@@H](O)[C@]1(C)O	20039	3.13 µg/mL
CC(C)(C)NC(=O)OCCN=c1ssc2ccccc12	AN1	2 µg/mL
CO[C@H]1/C=C/O[C@@]2(C)Oc3c(C)c(O)c4c(=O)c(c5oc6cc(N7CCN(CC(C)C)CC7)cc(=O)c6nc5c4c3=C2O)NC(=O)/C(C)=C\C=C\[C@H](C)[C@H](O)[C@@H](C)[C@@H](O)[C@@H](C)[C@H](OC(C)=O)[C@@H]1C	N-251 (HIV-)	0.0625 µg/mL
Cc1c(CNc2cccc3cnccc23)cnc2nc(N)nc(N)c12	NJ168	≤0.13 µg/mL
CCNC(=O)OCCN=c1ssc2ccccc12	ISS 486	4 µg/mL
CCCCCCCCC(=O)O[C@H]1[C@H](C)OC(O[C@H]2[C@H](C)[C@@H](O[C@@H]3O[C@H](C)C[C@H](N(C)C)[C@H]3O)C(C)(O)C[C@@H](C)/C(=N\OCCCOc3ccccc3)[C@H](C)[C@@H](O)[C@](C)(O)[C@@H](CC)OC(=O)[C@@H]2C)C[C@@]1(C)OC	20039 (clarithromycin-susceptible)	0.78 µg/mL
COc1ccc(OC)c(SCc2cnc3nc(N)nc(N)c3c2C)c1	NJ3404	≤0.13 µg/mL
CC(C)NC(=O)OCCn1sc2ccccc2c1=O	AN2	>32 µg/mL
CC(=O)Nc1ccc(/C(C)=N\NC(N)=S)cc1	109	0.25 µg/mL
CO[C@H]1/C=C/O[C@@]2(C)Oc3c(C)c(O)c4c(O)c(c5c(c4c3C2=O)NC2(CCN(CC(C)C)CC2)N=5)=NC(=O)/C(C)=C\C=C\[C@H](C)[C@H](O)[C@@H](C)[C@@H](O)[C@@H](C)[C@H](OC(C)=O)[C@@H]1C	N-978 (HIV+)	0.25 µg/mL
COc1cc(NCc2cnc3nc(N)nc(N)c3c2C)cc(C(F)(F)F)c1	NJ168	≤0.13 µg/mL
C[C@@H]1CN(c2c(F)c(N)c3c(=O)c(C(=O)O)cn(C4CC4)c3c2F)C[C@H](C)N1	N-316 (HIV-)	1 µg/mL
CC[C@H]1OC(=O)[C@H](C)[C@@H](OC2C[C@@](C)(OC)[C@@H](O)[C@H](C)O2)[C@H](C)[C@@H](O[C@@H]2O[C@H](C)C[C@H](N(C)C)[C@H]2O)C(C)(O)C[C@@H](C)/C(=N\OCCc2ccccc2)[C@H](C)[C@@H](O)[C@]1(C)O	20039	1.56 µg/mL
CCCOc1ccc(NCc2cnc3nc(N)nc(N)c3c2C)cc1OC	NJ3404	≤0.13 µg/mL
CC1(C)N=C(N)N=C(N)N1OCCCOc1cc(Cl)c(Cl)cc1Cl	DW7	0.5 µg/mL
CC[C@H]1OC(=O)[C@H](C)[C@@H](OC2C[C@@](C)(OC)[C@@H](O)[C@H](C)O2)[C@H](C)[C@@H](O[C@@H]2O[C@H](C)C[C@H](N(C)C)[C@H]2O)C(C)(O)C[C@@H](C)/C(=N\OCCc2cccs2)[C@H](C)[C@@H](O)[C@]1(C)O	20092	50 µg/mL
Cc1ccc(CSc2nc(=O)[nH]c3nc[nH]c23)cc1	NJ211	>12.8 µg/mL
NNC(=O)c1ccncc1	11016	1.26–1.6 µg/mL
CC[C@H]1OC(=O)[C@H](C)[C@@H](OC2C[C@@](C)(OC)[C@@H](O)[C@H](C)O2)[C@H](C)[C@@H](O[C@@H]2O[C@H](C)C[C@H](N(C)C)[C@H]2O)C(C)(O)C[C@@H](C)/C(=N\OCCSc2ccccc2)[C@H](C)[C@@H](O)[C@]1(C)O	20039	1.56 µg/mL
CCCCSc1nc(Cl)nc2nc[nH]c12	NJ211	>12.8 µg/mL
Cc1c(CNc2ccc(OC(F)F)cc2)cnc2nc(N)nc(N)c12	NJ3404	≤0.13 µg/mL
COc1cccc(CSc2ncccn2)c1	NJ211	>12.8 µg/mL
NNC(=O)c1ccncc1	N-966 (HIV+)	1 µg/mL

For reference, 4 entries again:

CCc1nc(N)nc(N)c1-c1ccc(Cl)cc1 ; strain: DW19 ; value: 32 µg/mL
COc1ccc(OC)c(SCc2cnc3nc(N)nc(N)c3c2C)c1 ; strain: NJ3404 ; value: ≤0.13 µg/mL
CC[C@H]1OC(=O)[C@H](C)[C@@H](OC(=O)Cc2ccccn2)[C@H](C)[C@@H](O[C@@H]2O[C@H](C)C[C@H](N(C)C)[C@H]2O)C(C)(O)C[C@@H](C)/C(=N\OCCCOc2ccccc2)[C@H](C)[C@@H](O)[C@]1(C)O ; strain: 20092 (clarithromycin-resistant) ; value: 25 µg/mL
CC[C@H]1OC(=O)[C@H](C)[C@@H](O[C@H]2C[C@@](C)(OC)[C@@H](OC(C)=O)[C@H](C)O2)[C@H](C)[C@@H](O[C@@H]2O[C@H](C)C[C@H](N(C)C)[C@H]2O)C(C)(O)C[C@@H](C)/C(=N\OCCCCc2ccccc2)[C@H](C)[C@@H](O)[C@]1(C)O ; strain: 20039 (clarithromycin-susceptible) ; value: 0.78 µg/mL

Rows are shuffled and stem from different studies.